Laboratory results from BindingDB's records for 27283786 (2016).

The chains behind the UniProt entries cited, without tags or fusion partners. Residues count along the entry.
UniProt B5Z8I0, 22-247 limits assumed: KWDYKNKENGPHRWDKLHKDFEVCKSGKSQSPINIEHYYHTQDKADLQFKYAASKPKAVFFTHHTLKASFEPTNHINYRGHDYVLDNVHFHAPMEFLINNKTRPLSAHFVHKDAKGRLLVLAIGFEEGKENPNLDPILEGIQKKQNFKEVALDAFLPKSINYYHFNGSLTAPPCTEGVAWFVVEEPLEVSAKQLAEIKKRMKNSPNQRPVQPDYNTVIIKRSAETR
UniProt A0A0H7HLM5, 1-183: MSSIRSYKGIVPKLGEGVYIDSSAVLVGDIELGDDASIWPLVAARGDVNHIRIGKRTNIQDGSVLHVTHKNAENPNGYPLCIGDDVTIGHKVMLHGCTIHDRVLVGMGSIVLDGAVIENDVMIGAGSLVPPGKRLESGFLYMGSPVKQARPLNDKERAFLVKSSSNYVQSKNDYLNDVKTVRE
UniProt Q9KMP6, 21-239 limits assumed: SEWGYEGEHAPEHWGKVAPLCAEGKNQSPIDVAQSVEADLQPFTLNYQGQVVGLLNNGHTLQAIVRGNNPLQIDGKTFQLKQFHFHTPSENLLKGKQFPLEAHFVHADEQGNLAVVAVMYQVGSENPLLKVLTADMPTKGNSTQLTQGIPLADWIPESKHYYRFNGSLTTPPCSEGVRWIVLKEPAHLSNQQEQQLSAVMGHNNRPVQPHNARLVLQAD
UniProt A0A086SLX8, 1-222: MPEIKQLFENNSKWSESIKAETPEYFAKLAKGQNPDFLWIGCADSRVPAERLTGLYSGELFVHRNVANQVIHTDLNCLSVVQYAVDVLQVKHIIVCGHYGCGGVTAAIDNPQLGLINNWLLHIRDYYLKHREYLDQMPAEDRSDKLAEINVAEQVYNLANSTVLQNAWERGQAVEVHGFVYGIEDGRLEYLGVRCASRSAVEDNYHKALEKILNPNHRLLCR

How the values were obtained:
Details in all cases: pH 7.5
Alpha-carbonic anhydrase = Alpha-carbonic anhydrase (Helicobacter pylori (strain G27), UniProt B5Z8I0); experiment: ASSAY_NAME: ChEMBL_158306 (CHEMBL763191) DESCRIPTION: Inhibition of Vibrio cholerae alpha carbonic anhydrase preincubated for 15 mins by stopped-flow CO2 hydrase assay
[1] = biological target: Gamma carbonic anhydrase family protein (Vibrio cholerae, UniProt A0A0H7HLM5)
Carbonic anhydrase [2] = biological target: Carbonic anhydrase (Vibrio cholerae serotype O1 (strain ATCC 39315 / El Tor Inaba N16961), UniProt Q9KMP6); experiment: ASSAY_NAME: ChEMBL_158307 (CHEMBL763192) DESCRIPTION: Inhibition of Flaveria bidentis carbonic anhydrase 1 preincubated for 15 mins by stopped-flow CO2 hydrase assay
Carbonic anhydrase [3] = biological target: Carbonic anhydrase (Vibrio cholerae, UniProt A0A086SLX8); experiment: ASSAY_NAME: ChEMBL_158311 (CHEMBL763368) DESCRIPTION: Inhibition of Vibrio cholerae carbonic anhydrase beta preincubated for 15 mins by stopped-flow CO2 hydrase assay

## N#CO
Alpha-carbonic anhydrase
  Ki: 600 µM
[1]
  Ki: 2600 µM

## [O]=[V]([OH])([OH])[O][V](=[O])([OH])[OH]
Alpha-carbonic anhydrase
  Ki: 270 µM
Carbonic anhydrase [2]
  Ki: 840 µM
Carbonic anhydrase [3]
  Ki: 7900 µM
[1]
  Ki: 8300 µM

## O=[As](O)(O)c1ccccc1
[1]
  Ki: 91 µM
